Measured values published in patent US20070265201A1, “INHIBITORS OF INFLAMMATORY CYTOKINE TRANSCRIPTION DERIVED FROM HCMV PROTEIN IE2” (priority 2005, published 2007).

System: HeLa-S3 cells
Test: Localization of GFP-IE2 fragment fusion protein after transfection
Format: cell-based
Conditions: 24 hours post transfection, HeLa-S3, FIG. 4A

B1: GFP 291-364 (protein)
chain: SSHHGRGGFGGAASSSLLSCGHQSSGGASTGPRKKKSKRISELDNEKVRNIMKDKNTPFCTPNVQTRRGRVKID
modifications: left off: large carriers
subcellular localization of GFP fusion protein: found in both the cytoplasm and nucleus
